Pooled drug test results. Numbers come from NIAID ChemDB, via PubChem.

Common to all: growth or infection tests; agent: Mycobacterium tuberculosis

A number after MIC or MFC names an inhibition level or a share of isolates. Rows are shuffled and stem from different studies. Two numbers with a dash give a range or band. An empty or dashed field is not shown. ECn is the concentration giving n% inhibition of infection, replication or growth. Inhibition is in % at the dose shown (toxicity tests: loss of growth or viability). MIC bound comes from a single tested concentration.

SMILES | conditions | mutations | method | endpoint | strain | dose | result
CN[C@@H]1[C@H](O[C@H]2[C@H](O[C@H]3[C@H](O)[C@@H](O)[C@H](N=C(N)N)[C@@H](O)[C@@H]3N=C(N)N)O[C@@H](C)[C@]2(O)C=O)O[C@@H](CO)[C@H](O)[C@H]1O | pH 6 | - | resazurin | MIC | H37Rv | - | 0.8 µM
N#C/C(=C\c1cccs1)n1nc2ccccc2n1 | - | - | - | EC50 | H37Rv | - | >12.5 µg/mL
O=C(O)COc1ccc(C2C(Oc3ccc(Cl)cc3Cl)C(=O)N2c2ccc(Cl)c(F)c2)cc1 | - | - | resazurin | inhibition | H37Rv | 6.25 µg/mL | 100%
COC1CCC(OC2CCCCC2OC)CC1 | - | - | - | MIC | - | - | >0.14 µg/mL
O=C(CSc1nnc(-c2ccc([N+](=O)[O-])o2)s1)OCc1ccccc1 | - | - | - | MIC | H37Rv | - | 0.78 µg/mL
Oc1c(Cl)c(N=Nc2nc3ccccc3s2)c(O)c2ccccc12 | - | - | BACTEC | inhibition | H37Rv | 12.5 µg/mL | 98%
NNC(=O)c1ccccc1Br | - | - | - | MIC50 | ATCC35801 | - | 65.9 µg/mL
S=C1SCN(C2CC2)CN1C1CC1 | - | - | - | MIC | H37Rv | - | 25 µg/mL
Cc1cc(O)c2c(c1)[C@H](O)CCC2=O | - | - | - | MIC | - | - | >530 µg/mL
CCCCOC(=O)CSc1nnc(-c2ccc([N+](=O)[O-])o2)s1 | - | - | - | MIC | H37Rv | - | >6.25 µg/mL
S=C1SCN(Cc2ccccc2)CN1C1CCCCC1 | - | - | - | MIC | H37Rv | - | 50 µg/mL
CCCCCCCC(=O)N1[C@H]2[C@@H]1CN1C3=C(C(=O)C(N)=C(C)C3=O)[C@@H](COC(N)=O)[C@@]21OC | - | - | - | MIC | PAS-R | - | 0.4 µg/mL
O=c1oc(-c2cccnc2Cl)ns1 | - | - | broth dilution | MIC99 | H37Rv | - | 32 µg/mL
CO[C@H]1/C=C/O[C@@]2(C)Oc3c(C)c(O)c4c(O)c(c(/C=N/N5CCN(C6CCCC6)CC5)c(O)c4c3C2=O)NC(=O)/C(C)=C\C=C\[C@H](C)[C@H](O)[C@@H](C)[C@@H](O)[C@@H](C)[C@H](OC(C)=O)[C@@H]1C | - | - | resazurin | MIC90 | H37Rv | - | <0.15 µM
NC(=Nc1nc(-c2ccccn2)cc2ccccc12)c1ccc(Cl)c(Cl)c1 | - | - | - | MIC | H37Rv | - | 0.125 µg/mL
CC1=CC(=O)C(C(C)C)=CC1=O | - | - | broth dilution | MBC | H37Ra ATCC 25177 | - | 16 µg/mL
ClCC1CCC(OC2CCC(CCl)CC2)CC1 | - | - | - | MIC | - | - | >0.08 µg/mL
CCCCCCCCCCCCCCCCNC(CCO)C1OC2OC(C)(C)OC2[C@@H]1OCc1ccccc1 | - | - | - | MIC | H37Rv | - | 12.5 µg/mL
O=C(O)COc1ccc(C2C(Oc3ccccc3)C(=O)N2c2ccc(Cl)c(F)c2)cc1 | - | - | resazurin | inhibition | H37Rv | 6.25 µg/mL | 67%
O=c1oc(-c2cc(F)c(Cl)nc2Cl)ns1 | - | - | broth dilution | MIC99 | H37Rv | - | 32 µg/mL
COc1cc2c(c3c1C(=O)[C@H](C)[C@@H](C)O3)C=CC(C)(C)O2 | - | - | BACTEC | MIC bound | H37Rv | - | >12.5 µg/mL
C[C@H]1COc2c(N3CCN(C)CC3)c(F)cc3c(=O)c(C(=O)O)cn1c23 | - | - | - | MIC50 | 5 isolates drug-resistant | - | 0.5 µg/mL
CCN(CC)Cc1c(C)[nH]c2ccc(NC(C)=O)cc2c1=O | - | - | BACTEC | MIC bound | H37Rv | - | >12.5 µg/mL
CCCCCCCCCCCCCCCCNC(CCO)C1OC2OC(C)(C)OC2[C@@H]1OC | - | - | - | MIC | H37Ra | - | 6.25 µg/mL
NC(=Nc1ccc2ccc3cccnc3c2n1)c1ccccc1 | - | - | - | MIC | H37Rv | - | 1–4 µg/mL
CN(C)c1ccc(N=C2C=CC(=O)O2)cc1 | - | - | resazurin | MIC bound | H37Rv | - | >6.25 µg/mL
O=C(O)COc1ccc(C2C(c3ccccc3)C(=O)N2c2ccc(Cl)c(F)c2)cc1 | - | - | resazurin | MIC90 | H37Rv | - | >6.25 µg/mL
CO[C@@H]1C(C(CCO)NCCCCCCCC/C=C/CCCCCCCCN)OC2OC(C)(C)OC21 | - | - | - | MIC | H37Rv | - | 25 µg/mL
CCCCCCCCc1ccc2c(c1)C(=O)c1nc3ccncc3c(=O)n1-2 | - | - | - | MIC | H37Rv | - | 0.015 µg/mL
S=C1SCN(C2CCCCC2)CN1c1ccco1 | - | - | - | MIC | H37Rv | - | 50 µg/mL
O=Cc1ccc(C2=CC(=O)c3ccccc3C2=O)o1 | - | - | resazurin | MIC90 | H37Rv | - | >6.25 µg/mL
O=C(NC(=O)C(Cl)Cl)Nc1cccc2c1-c1ccccc1C2 | - | - | BACTEC | MIC bound | H37Rv | - | >12.5 µg/mL
C[C@H]1COc2c(N3CCN(C)CC3)c(F)cc3c(=O)c(C(=O)O)cn1c23 | - | - | - | MIC90 | 22 strains (rifampicin-susceptible) | - | 0.39 µg/mL
CCCCCCCCCCCCCCCCCCNC(CCO)C1OC2OC(C)(C)OC2[C@H]1OCc1ccccc1 | - | - | - | MIC | H37Ra | - | 25 µg/mL
COc1cccc(C(N)=Nc2nc(-c3ccccn3)cc3ccccc23)c1 | - | - | - | MIC | H37Rv | - | 0.25 µg/mL
CN(C)CCN1C(=O)CC(c2ccccc2)Sc2ccccc21 | - | - | BACTEC | inhibition | H37Rv | 12.5 µg/mL | 12%
Cc1cccc2c(=O)n3c(nc12)C(=O)c1ccccc1-3 | - | - | - | MIC | H37Rv | - | 0.13 µg/mL
O=C(O)COc1ccc(C2C(Oc3ccc(Cl)cc3)C(=O)N2c2ccc(Cl)c(F)c2)cc1 | - | - | resazurin | inhibition | H37Rv | 6.25 µg/mL | 100%
CC(C)=CCC/C(C)=C/CNC(=O)CNC(=O)CC12CC3CC(C1)CC(CC(=O)NCC(=O)NC/C=C(\C)CCC=C(C)C)(C3)C2 | - | - | BACTEC | MIC | H37Rv | - | >50 µM
OC1CCCCC1C1CCCCC1CBr | - | - | - | MIC | - | - | 1 µg/mL
COc1cccc2c(=O)n3c(nc12)C(=O)c1ccccc1-3 | - | - | - | MIC | H37Rv | - | 0.06 µg/mL
O=C1C=CC(=O)c2c(O)ccc(O)c21 | - | - | resazurin | MIC90 | H37Rv | - | 3.13 µg/mL
CC1=CC(=O)c2c(O)cccc2C1=O | - | - | broth dilution | MBC | H37Ra ATCC 25177 | - | 16 µg/mL
NC[C@H]1O[C@H](O[C@H]2[C@H](O)[C@@H](O[C@H]3O[C@H](CO)[C@@H](O)[C@H](N)[C@H]3O)[C@H](N)C[C@@H]2N)[C@H](N)[C@@H](O)[C@@H]1O | - | Kanamycin-resistant rKM | resazurin | MIC | H37Rv | - | >10.2 µM
COC(=O)CSc1nnc(-c2ncc([N+](=O)[O-])n2C)s1 | - | - | - | MIC | H37Rv | - | 6.25 µg/mL
CC(=O)c1cccc(C2=CC(=O)c3ccccc3C2=O)n1 | - | - | resazurin | MIC90 | H37Rv | - | >6.25 µg/mL
CCCCCCC(O)C/C=C/CCCCCCCC(=O)O | - | - | BACTEC | inhibition | H37Rv | 12.5 µg/mL | 3%
O=C1C=CC(=O)c2c1cccc2-c1ccccc1 | - | - | resazurin | MIC90 | H37Rv | - | >6.25 µg/mL
O=C1OC2CCCCC2C2CCCCC12 | - | - | - | MIC | - | - | 0.05 µg/mL
OCCNc1nn2ccnc2c2ccccc12 | - | - | BACTEC | MIC bound | H37Rv | - | >12.5 µg/mL
COC1CCCCC1OC1CCCCC1C(=O)O | - | - | - | MIC | - | - | 1 µg/mL
O=C(O)CCN1CSC(=S)N(C2CC2)C1 | - | - | - | MIC | H37Rv | - | 12.5 µg/mL
CCCCCCCCCCCCCCCCNC(CCO)C1OC2OC(C)(C)OC2[C@H]1OC | - | - | - | MIC | H37Ra | - | 12.5 µg/mL
O=C1c2cc(Cl)ccc2-n2c1nc1ccccc1c2=O | - | - | - | MIC | H37Rv | - | 0.06 µg/mL
C(=C\c1cncnc1-c1ccc(-c2cccs2)s1)/c1ccc(-c2ccccc2)cc1 | - | Rifampicin- and isoniazid-resistant | broth dilution | MIC | MDR | - | 1.5 µg/mL
O=C(O)c1cc(=O)c2cc3c(=O)cc(C(=O)O)[nH]c3c(Cl)c2[nH]1 | - | - | BACTEC | MIC bound | H37Rv | - | >12.5 µg/mL
CS(=O)(=O)c1ccc2c(c1)C(=O)c1nc3ccncc3c(=O)n1-2 | - | - | - | MIC | H37Rv | - | 4 µg/mL
N#C/C(=C/C1CCCCC1)n1nnc2ccccc21 | - | - | - | EC50 | H37Rv | - | >12.5 µg/mL
Cc1ccccc1-n1c(SCC(=O)NC(=O)Nc2cccc(Cl)c2)nc2c(Br)cc(Br)cc2c1=O | - | - | BACTEC | MIC | H37Rv | - | 6.25 µg/mL
NC(=O)/C(=C\c1ccc(Cl)cc1)n1nc2ccccc2n1 | - | - | - | inhibition | H37Rv | 12.5 µg/mL | 0%
CO[C@H]1/C=C/O[C@@]2(C)Oc3c(C)c(O)c4c(O)c(c(/C=N/N5CCN(C/C=C/c6ccccc6)CC5)c(O)c4c3C2=O)NC(=O)/C(C)=C\C=C\[C@H](C)[C@H](O)[C@@H](C)[C@@H](O)[C@@H](C)[C@H](OC(C)=O)[C@@H]1C | - | - | - | MIC | H37Rv | - | 0.2 µg/mL
CCc1ccc2c(c1)C(=O)C=CC2=O | - | - | resazurin | MIC90 | H37Rv | - | >6.25 µg/mL
CCCOC(=O)CSc1nnc(-c2ccc([N+](=O)[O-])o2)s1 | - | - | - | MIC | H37Rv | - | >6.25 µg/mL
O=Cc1cn(CCCCCCCCCCCCn2cc(C=O)c3ccccc32)c2ccccc12 | - | - | BACTEC | MIC bound | H37Rv | - | >12.5 µg/mL
CC(=O)c1ccc(C2=CC(=O)c3ccccc3C2=O)nc1 | - | - | resazurin | MIC90 | H37Rv | - | 3.13 µg/mL
S=C1SCN(C2CCCCC2)CN1Cc1ccccc1 | - | - | - | MIC | H37Rv | - | 50 µg/mL
Cn1cc(NC(=O)c2cc(NC(=O)CCCCCCCCCCC(=O)Nc3cc(C(=O)Nc4cc(C(=O)NCCC(N)=[NH2+])n(C)c4)n(C)c3)cn2C)cc1C(=O)NCCC(N)=[NH2+] | - | - | BACTEC | MIC | H37Rv | - | 3.13 µg/mL
CCC1Cn2cc([N+](=O)[O-])nc2O1 | - | - | - | MIC | 2 isolates (isoniazid-resistant) | - | 0.16 µg/mL
CCOc1c(N=Nc2ccc(Cl)cc2Cl)c(C)nn1C(=S)S | - | - | BACTEC | MIC bound | H37Rv | - | ≤12.5 µg/mL
NNC(=O)c1ccncc1 | - | - | - | MIC50 | ATCC35801 | - | 16.7 µg/mL
O=C(O)CCCN1CSC(=S)N(C2CC2)C1 | - | - | - | MIC | H37Rv | - | 25 µg/mL
Cc1cc(O)c2c(c1)C(=O)C(c1c(C)cc3c(c1O)C(=O)C=CC3=O)=CC2=O | - | - | - | MIC | CCK028469V isoniazid- rifampin-resistant | - | 100 µg/mL
COc1cc(/C=C(\C#N)n2nc3ccccc3n2)cc(OC)c1OC | - | - | - | inhibition | H37Rv | 12.5 µg/mL | 0%
Cc1ccc(S(=O)(=O)Oc2ccc3oc4c(CO)ccc(NCCN(C)C)c4c(=O)c3c2)cc1 | - | - | - | MIC | TAC-R | - | 12.5 µg/mL
CC(C)=CCC/C(C)=C/CNC(=O)CNC(=O)C12CC3CC(C1)CC(C(=O)NCC(=O)NC/C=C(\C)CCC=C(C)C)(C3)C2 | - | - | BACTEC | MIC | H37Rv | - | >50 µM
CCOc1ccc(NC(=O)/C(CC(=O)c2c[n+](=O)c3ccccc3n2[O-])=N/OCCCc2ccccc2)cc1 | - | - | BACTEC | inhibition | H37Rv | 12.5 µg/mL | 67%
O=c1nc(-c2cc(F)c(Cl)nc2Cl)ss1 | - | - | broth dilution | MIC90 | H37Rv | - | 1 µg/mL
S=C1SCN(C2CCCCC2)CN1C1CC1 | - | - | - | MIC | H37Rv | - | 100 µg/mL
CCCOC(=O)CSc1nnc(-c2ncc([N+](=O)[O-])n2C)s1 | - | - | - | MIC | H37Rv | - | 0.78 µg/mL
CCOC(=O)C(CO)NC(=O)C1(NC(C)=O)CCCC1 | - | - | BACTEC | MIC | H37Rv | - | ≥12.8 µg/mL
OC1CCC(O)C(OC2CCCCC2)C1 | - | - | - | MIC | - | - | 0.25 µg/mL
Nc1nnc2nc(CC(=O)c3cccc([N+](=O)[O-])c3Cl)c(=O)[nH]n12 | - | - | BACTEC | inhibition | H37Rv | 12.5 µg/mL | 1%
O=c1nc(-c2ccc(F)cc2)ss1 | - | - | broth dilution | MIC90 | H37Rv | - | 8 µg/mL
O=C1S/C(=C2/C(=O)N(CN3CCCCC3)c3ccc(Br)cc32)C(=O)N1CN1CCCCC1 | - | - | BACTEC | inhibition | H37Rv | 12.5 µg/mL | 34%
Brc1cncnc1-c1ccc(-c2ccccc2)s1 | - | Rifampicin- and isoniazid-resistant | broth dilution | MIC | terrae | - | 0.7 µg/mL
C/C(=N/NC(=S)N1CCC(c2ccccc2)CC1)c1nccnc1C | - | - | - | MIC | INH-r | - | 6.3 µg/mL
NC(=O)/C(=C\c1ccccc1)n1nc2ccccc2n1 | - | - | - | EC50 | H37Rv | - | >12.5 µg/mL

A second listing of 7 rows from above:

| SMILES | conditions | mutations | method | endpoint | strain | dose | result |
|---|---|---|---|---|---|---|---|
| CCCCCCCCCCCCCCCCNC(CCO)C1OC2OC(C)(C)OC2[C@H]1OC | - | - | - | MIC | H37Ra | - | 12.5 µg/mL |
| O=C1C=CC(=O)c2c(O)ccc(O)c21 | - | - | resazurin | MIC90 | H37Rv | - | 3.13 µg/mL |
| NC(=Nc1ccc2ccc3cccnc3c2n1)c1ccccc1 | - | - | - | MIC | H37Rv | - | 1–4 µg/mL |
| CC(=O)c1cccc(C2=CC(=O)c3ccccc3C2=O)n1 | - | - | resazurin | MIC90 | H37Rv | - | >6.25 µg/mL |
| COc1cc2c(c3c1C(=O)[C@H](C)[C@@H](C)O3)C=CC(C)(C)O2 | - | - | BACTEC | MIC bound | H37Rv | - | >12.5 µg/mL |
| COC1CCCCC1OC1CCCCC1C(=O)O | - | - | - | MIC | - | - | 1 µg/mL |
| NC(=Nc1nc(-c2ccccn2)cc2ccccc12)c1ccc(Cl)c(Cl)c1 | - | - | - | MIC | H37Rv | - | 0.125 µg/mL |